Data as given in PubChem BioAssay AID504329 (Southern Research Specialized Biocontainment Screening …, 2011).
This is one part of the list. Measured potencies and affinities stand elsewhere. Calls of active or inactive are those of the source. Cut-off read from the data, not from the text of the source: inconclusive = inhibition above about 27% without an active follow-up result; inactive = below that.

Experiment: NS1A inhibition, H1N1 influenza, cell based functional assay (AID 504329)
Conditions: percent inhibition, at 12.5 µM, active compounds read high

SMILES | inhibition
O=[N+]([O-])c1ccc(Nc2ccc(Oc3ccc([N+](=O)[O-])cc3[N+](=O)[O-])cc2)c([N+](=O)[O-])c1 | inactive: -19.7%
Cc1cc(SC(NC=O)C(Cl)(Cl)Cl)ncn1 (centres undefined) | inactive: 0.63%
O=P(Nc1ccccn1)(c1cccc2ccccc12)c1cccc2ccccc12 | inactive: -7.53%
COP1(=S)c2c(C)nn(CCC#N)c2N=C(c2ccc(F)cc2)N1C (centres undefined) | inactive: -1.89%
O=C(Nc1ccncc1[N+](=O)[O-])c1ccc([N+](=O)[O-])cc1[N+](=O)[O-] | inactive: -1.35%
O=C(COc1ccccc1)OC1CN2CCC1CC2 (centres undefined) | inactive: -0.45%
CCOC(=O)c1ccc(NC(=O)C(C)(CCl)SC)cc1 (centres undefined) | inactive: -20.4%
O=C(OC1CN2CCC1CC2)c1cccc([N+](=O)[O-])c1 (centres undefined) | inactive: -2.79%
Cc1cc(=O)[nH]c(N[N+](=O)[O-])n1 | inactive: 1.52%
O=C(OC1CN2CCC1CC2)C12CC3CC(CC(C3)C1)C2 (centres undefined) | inactive: -3.79%
Cc1c2c(nc3ccccc13)SC(C(Cl)Cl)C2 (centres undefined) | inactive: -0.48%
COc1cc(I)ccc1[As](=O)(O)O | inactive: -7.01%
COc1ccc2nc(NP(=O)(c3ccccc3)c3ccccc3)sc2c1 | inactive: 4.47%
O=P1(N(CCCl)CCCl)Nc2ccccc2N1 | inactive: 0.67%
O=P1(N(CCCl)CCCl)OCCCN1CCCl (centres undefined) | inactive: -4.25%
COc1ccc(N/C(=N/P(=O)(N2CCOCC2)N2CCOCC2)N2CCOCC2)cc1 | inactive: 7.43%
O=[N+]([O-])c1cc(Oc2ccc([N+](=O)[O-])cc2C(F)(F)F)cc([N+](=O)[O-])c1 | inactive: 15.8%
O=[N+]([O-])c1ccc(-c2cc([N+](=O)[O-])c(O)c([N+](=O)[O-])c2)cc1 | inactive: 8.17%
COc1cc(C(=O)NCC2(N3CCOCC3)CCCCC2)ccc1OCC(C)C | inactive: 5.06%
C[As](=O)(O)c1cccc(C(=O)O)c1 | inactive: -24.5%
O=[As](O)(c1ccc(O)cc1)c1ccccc1O | inactive: -6.51%
Cc1ccc2nc3c(c(C)c2c1)CC(C(Cl)Cl)S3 (centres undefined) | inactive: 10.9%
Cc1ccc(OP(=O)(Nc2ccc([N+](=O)[O-])cn2)Oc2ccc(C)cc2)cc1 | inactive: 0.36%
COC(=O)C1(C)COP(=O)(N2CCCCCC2)OC1 (centres undefined) | inactive: -8.63%
CC(C)c1ccc(OP(=O)(Nc2ccccn2)Oc2ccccc2F)cc1 (centres undefined) | inactive: -12.9%
ClCCSc1nnc(-c2cccnc2)o1 | inactive: -2.74%
O=[N+]([O-])c1cc([N+](=O)[O-])c(-c2ccn[nH]2)s1 | inactive: -0.24%
O=C(OC1CN2CCC1CC2)c1cccc2[nH]cnc12 (centres undefined) | inactive: -1.46%
CCN(CC)C(=S)SC(NC=O)C(Cl)(Cl)Cl (centres undefined) | inactive: -6.42%
